Pooled drug test results. Numbers come from NIAID ChemDB, via PubChem.

Common to all: whole-cell or culture tests

An empty or dashed field is not shown. Rows are shuffled and stem from different studies. Two numbers with a dash give a range or band. ECn is the concentration giving n% inhibition of infection, replication or growth. Percent inhibition refers to the dose given; in toxicity tests it is the harm to the cells.

compound | endpoint | dose | agent | strain or isolate | cell line | value
CCCCCCCCCCCCCCCCCCOCCOP(=O)(O)CO[C@H](CO)Cn1ccc(N)nc1=O | EC50 |  | Cowpox virus | Brighton | HFF | 0.3 µM
Nc1ncnc2c1ncn2C[C@H](O)CO | EC50 |  | Vaccinia virus |  | PRK | 10–20 µg/mL
Nc1ncnc2c1ncn2[C@@H]1C=C(CO)[C@@H](O)[C@H]1O | EC50 |  | Junin virus |  | VERO | 6.5 µg/mL
COc1c(C)c2c(c(O)c1C/C=C(\C)CCC(=O)O)C(=O)OC2 | EC50 |  | Camelpox virus | Somalia wild type | VERO 76 | 2.5 µM
NC(=O)c1nc(F)c[nH]c1=O | EC50 |  | Influenza A virus | H2N2 JAPAN/305/57 | MDCK | 0.3 µg/mL
Nc1nc2c(ncn2COCCO)c(=O)[nH]1 | EC50 |  | Variola virus |  | BSC | 776 µM
CC1C2CCCC([C@@H]2N)[C@]2(O)CCCCC12 | inhibition | 4 µg/mL | Influenza A virus | H2N2 A/Singapore/1/57 | MDCK | 100%
CCCCCCCCCN1[C@H](CN)[C@@H](O)[C@H](O)[C@H]1CO | EC50 |  | Japanese encephalitis virus |  |  | >10 µM
Nc1ncnc2c1ncn2C[C@H](O)CO | EC50 |  | Junin virus | XJCL3 | VERO | 14 µg/mL
Nc1nccc2c1ncn2[C@@H]1CC[C@@H](O)[C@H]1O | EC50 |  | Vaccinia virus |  | L929 | 0.03 µg/mL
NC(=O)N=NC(N)=O | EC50 |  | Junin virus |  | VERO | >100 µM
Nc1ccn(C[C@@H](CO)OCP(=O)(O)O)c(=O)n1 | EC50 |  | Cowpox virus | Brighton | HFF | 44.7 µM
Nc1nccc2c1ncn2[C@@H]1C[C@H](CO)[C@@H](O)[C@H]1O | EC50 |  | Camelpox virus | Somalia wild type | VERO 76 | 39 µM
O=Nc1ccc2ccccc2c1N=Nc1ccccc1C(=O)O | EC50 |  | Junin virus |  | VERO | 6.5 µM
CC12CC3CC(C)(C1)CC(CCC[NH3+])(C3)C2 | inhibition | 8 µg/mL | Influenza A virus | H2N2 A/Singapore/1/57 | MDCK | 100%
CCCCCCCCCCCCCCCCOCCCOP1(=O)CO[C@@H](Cn2ccc(N)nc2=O)CO1 | EC50 |  | Vaccinia virus | NYC | HFF | 0.1 µM
Nc1ncnc2c1ncn2[C@@H]1C=C(CO)[C@@H](O)[C@H]1O | EC50 |  | Vaccinia virus |  | PRK | 0.03 µg/mL
NC(=O)c1ncn([C@@H]2O[C@H](CO)[C@@H](O)[C@H]2O)n1 | EC50 |  | Monkeypox virus | Zaire strain wild-type | VERO 76 | 96 µM
NC(=O)c1ncn([C@@H]2O[C@H](CO)[C@@H](O)[C@H]2O)n1 | EC50 |  | Hantaan virus | HVL7990 | VERO E6 | 16 µg/mL
Nc1ncnc2c1ncn2[C@H]1[C@H](O)[C@H](O)[C@]2(CO)O[C@H]12 | EC50 |  | Junin virus | XJCL3 | VERO | >1 µg/mL
Nc1ccn(C[C@@H](CO)OCP(=O)(O)O)c(=O)n1 | EC50 |  | Monkeypox virus |  | BSC | 47 µM
CC1(C)[C@@H](O[C@H]2O[C@H](C(=O)O)[C@@H](O)[C@H](O)[C@H]2O[C@@H]2O[C@H](C(=O)O)[C@@H](O)[C@H](O)[C@H]2O)CC[C@]2(C)[C@H]3C(=O)C=C4[C@@H]5C[C@@](C)(C(=O)O)CC[C@]5(C)CC[C@@]4(C)[C@]3(C)CC[C@@H]12 | EC90 |  | Yellow fever virus | FNV | VERO | 429 µg/mL
Nc1nccc2c1ncn2[C@@H]1C[C@H](CO)[C@@H](O)[C@H]1O | EC50 |  | Junin virus | XJCL3 | VERO | 1.2 µg/mL
CCCCCCCCCCCCCCCCOCCCOP(=O)(O)CO[C@H](CO)Cn1ccc(N)nc1=O | EC50 |  | Vaccinia virus | Copenhagen | HFF | 0.8 µM
CC1N(N)C12C1CC3CC(C1)CC2C3 | inhibition | 1 µg/mL | Influenza A virus | H2N2 A/Singapore/1/57 | MDCK | 100%
Nc1ncnc2c1ncn2[C@@H]1O[C@H](CO)C(O)OC1O | EC50 |  | Junin virus | XJCL3 | VERO | 0.6 µg/mL
Nc1ncnc2c1ncn2[C@@H]1OC(C#CI)[C@@H](O)[C@H]1O | EC50 |  | Vaccinia virus |  | E6SM | 0.1 µg/mL
NC(=O)c1c[se]c([C@@H]2O[C@H](CO)[C@@H](O)[C@H]2O)n1 | EC50 |  | Yellow fever virus | Asibi | VERO | 0.005 µg/mL
Nc1ccn(C[C@@H](CO)OCP(=O)(O)O)c(=O)n1 | EC50 |  | Monkeypox virus |  | 3T3 | 8 µM
Nc1ccn(C[C@H]2COP(=O)(O)CO2)c(=O)n1 | EC50 |  | Cowpox virus |  | VERO | 132 µM
Nc1ncnc2c1nnn2C[C@@H](CO)OCP(=O)(O)O | EC50 |  | Vaccinia virus |  | E6SM | 0.7–2 µg/mL
NC(=O)c1ncn([C@@H]2O[C@H](CO)[C@@H](O)[C@H]2O)n1 | EC50 |  | Cowpox virus |  | VERO | >246 µM
O=c1cnn([C@@H]2O[C@H](CO)[C@@H](O)[C@H]2O)c(=O)[nH]1 | EC50 |  | Monkeypox virus |  | VERO 76 | 4 µM
CC(C)COC(=O)C(O)Cn1cnc2c(N)ncnc21 | EC50 |  | Junin virus | XJCL3 | VERO | 9 µg/mL

Repeating the first 3 entries:

compound	endpoint	dose	agent	strain or isolate	cell line	value
CCCCCCCCCCCCCCCCCCOCCOP(=O)(O)CO[C@H](CO)Cn1ccc(N)nc1=O	EC50		Cowpox virus	Brighton	HFF	0.3 µM
Nc1ncnc2c1ncn2C[C@H](O)CO	EC50		Vaccinia virus		PRK	10–20 µg/mL
Nc1ncnc2c1ncn2[C@@H]1C=C(CO)[C@@H](O)[C@H]1O	EC50		Junin virus		VERO	6.5 µg/mL